Experimental data as given in PMC10478095.

Molecular target: T1, PE18 (Rv1788) from Mycobacterium tuberculosis (Mycobacterium tuberculosis H37Rv), L7N649
T1 chain: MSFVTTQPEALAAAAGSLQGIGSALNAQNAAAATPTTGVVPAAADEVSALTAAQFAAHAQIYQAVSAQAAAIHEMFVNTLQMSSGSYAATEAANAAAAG
Test: BLI
Details: remark: other sources report otherwise

B1: PPE26 (Rv1789) from Mycobacterium tuberculosis, Q79FK6 1-393 (natural protein)
chain: MDFGALPPEVNSVRMYAGPGSAPMVAAASAWNGLAAELSSAATGYETVITQLSSEGWLGPASAAMAEAVAPYVAWMSAAAAQAEQAATQARAAAAAFEAAFAATVPPPLIAANRASLMQLISTNVFGQNTSAIAAAEAQYGEMWAQDSAAMYAYAGSSASASAVTPFSTPPQIANPTAQGTQAAAVATAAGTAQSTLTEMITGLPNALQSLTSPLLQSSNGPLSWLWQILFGTPNFPTSISALLTDLQPYASFFYNTEGLPYFSIGMGNNFIQSAKTLGLIGSAAPAAVAAAGDAAKGLPGLGGMLGGGPVAAGLGNAASVGKLSVPPVWSGPLPGSVTPGAAPLPVSTVSAAPEAAPGSLLGGLPLAGAGGAGAGPRYGFRPTVMARPPFAG
**Q.** With B1 as the binder, how does the Kd read?
**A.** Its Kd is 610 nM.
